Test results as given in patent US10087404B2, “Biological corrosion inhibitor for metals” (KURARAY CO., LTD., priority 2014, dated 2018).

System: activated sludge
Test: Biodegradability test (OECD test guideline 301C, JIS K 6950) with activated sludge
Conditions: for biodegradation rate in 28 days: 25° C., activated sludge 30 ppm; for degradability determination: 28 days
[1] = high concentration group (100 ppm)
[2] = low concentration group (30 ppm)

Row | Structure (SMILES) | biodegradation rate in 28 days [1] [%] | degradability determination [1] | biodegradation rate in 28 days [2] [%] | degradability determination [2]
1 | CC(CC=O)CC=O [3-methylglutaraldehyde] | 64.8 | highly degradable (When the biodegradation rate was 60% or more, the substance was determined as a highly degradable substance) | 97.2 | highly degradable (When the biodegradation rate was 60% or more, the substance was determined as a highly degradable substance)
2 | O=CCCCC=O [glutaraldehyde] | 52.6 | partially biodegradable (hardly degradable) | 78.0 | highly degradable (When the biodegradation rate was 60% or more, the substance was determined as a highly degradable substance)
